Patent US20240343781A1

What was measured:
[1] = biological target: SARS-CoV Spike (SARS-CoV) (UniProt P59594); assay: SPR
SARS-CoV-2 (SARS-CoV-2) = SARS-CoV-2 (SARS-CoV-2) (UniProt P0DTC2); assay: ELISA
SARS-CoV-2 Spike = assay: SPR
Yunnan2011 = assay: ELISA
BM-4831 = assay: ELISA
BtKY72 = assay: ELISA
SARS-CoV = assay: ELISA
SHC014 = assay: ELISA
RmYN02 = assay: ELISA
RaTG13 = assay: ELISA
GX-Pangolin = assay: ELISA
Rs4081 = assay: ELISA
Rf1 = assay: ELISA
WIV1 = assay: ELISA

| Substance | Kd [1] [pM] | EC50 (SARS-CoV-2 (SARS-CoV-2)) [ng/mL] | also measured |
| --- | --- | --- | --- |
| ADG-2 | 1.41 | 3 |  |
| COVA1-16 |  | 4 |  |
| CR3022 | 0.759 |  | Kd (SARS-CoV-2 Spike): 1.79 nM; EC50 (Yunnan2011): 0.307 µg/mL; EC50 (BM-4831): > 10 µg/mL; EC50 (BtKY72): 5 ng/mL; EC50 (SARS-CoV): 9 ng/mL; EC50 (SHC014): 6 ng/mL; EC50 (RmYN02): > 10 µg/mL; EC50 (RaTG13): 0.262 µg/mL; EC50 (GX-Pangolin): 0.03 µg/mL; EC50 (Rs4081): 0.826 µg/mL; EC50 (Rf1): > 10 µg/mL; EC50 (WIV1): 4 ng/mL |
| DH1047 | 1.11 | 4 |  |
| REGN10985 | 4650 | 1 |  |
| S2H97 | 70.6 | 3 |  |
| S2X259 | 3.65 | 3 |  |
